Measurements reported in PubChem BioAssay AID1224833 (University of Georgia, 2016).

Test: 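Human genes whose knock-down alters rotavirus replication in monkey cells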 (primary screen)
Cells: monkey MA104 kidney cells
Knock-down reagent: siRNA pool against human genes, 50 nM
Duration: 48 h knock-down before infection; read 24 h after infection
Conditions: infection with rotavirus strain RV3 two days after transfection; infectious dose for this stage not given
Detection: 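Rotavirus antigen per well by fluorescent immunoassay, normalised to non-targeting control wells on each plate and given as a standard z-score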
Scale: z-score vs non-targeting control: higher = more rotavirus replication than with non-targeting control
Active means: In these data the active calls have z-score vs non-targeting control at about -1 or lower, or at about 1 or higher
Calls: active = z-score beyond 1 either way; inactive = z-score within 1 of zero
In all, the deposit lists about 12,000 reagents; shown is a random part of them. About 5,600 of all reagents (46%) were called active. 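Active calls cover z-scores past 1 in both directions, so they include lowered as well as raised rotavirus replication.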 Entries without a mark were called inactive.

Target gene	z-score vs non-targeting control
CHP2	-1.36 (active)
DYNC1LI2	-1.66 (active)
KLHDC1	0.382
CHD8	-1.07 (active)
ROBO1	-1.47 (active)
RETNLB	-5.67 (active)
GASK1B	1.27 (active)
THSD7B	1.09 (active)
ZNF341	-0.68
NOLC1	-0.14
SPMIP8	-1.55 (active)
PARVA	0.921
UPK3A	-0.868
COL4A1	-0.103
ZNF606	-0.705
LGALS9C	-2.95 (active)
CPNE4	-0.365
TTLL5	0.571
IARS2	-1.79 (active)
DNAAF1	1.82 (active)
MGA	-0.7
OR1L3	1.22 (active)
TLX3	0.159
ZNF202	-1.58 (active)
ACOXL	-1.58 (active)
AP4M1	-1.85 (active)
CELA3A	1.88 (active)
MAJIN	-1.08 (active)
RAB39B	-2.06 (active)
SPRR2G	-0.0018
ARMH3	-0.819
SFRP1	2.17 (active)
MIS18BP1	-0.625
LIPC	0.516
SPAG5	0.0754
KLHL22	-0.89
OR1E1	-0.36
OR10AG1	-1.49 (active)
COL14A1	-0.777
SGCE	-0.783
H3-3A	-1.47 (active)
NINL	-1.12 (active)

Single entries from the entries so far:
Under “z-score vs non-targeting control”, LGALS9C has -2.95 (active)
Under “z-score vs non-targeting control”, NINL is entered as -1.12 (active)
For “z-score vs non-targeting control”, MIS18BP1 reads -0.625
Value of CHP2 under “z-score vs non-targeting control”: -1.36 (active)
Under “z-score vs non-targeting control”, H3-3A reads -1.47 (active)
Result for ARMH3 in “z-score vs non-targeting control”: -0.819

More results follow:
Target gene	z-score vs non-targeting control
KCTD16	-2.55 (active)
EIF4A1	1.68 (active)
TMEM106B	-1.59 (active)
MLN	-2.17 (active)
CTDNEP1	0.474
GSTA5	-1.2 (active)
STARD4	-1.72 (active)
PCDHA3	-2.43 (active)
SPATA46	-2.04 (active)
UGT1A9	-2.23 (active)
MICAL1	-0.157
MBD4	2.05 (active)
PLAUR	-1.08 (active)
OR10X1	-0.407
CSF2RB	1.42 (active)
R3HDML	-1.33 (active)
SNRNP70	-0.706
KIF13B	-1.01 (active)
CSRP2	1.1 (active)
WDR47	0.76
SMAGP	-2.12 (active)
SLC38A5	-0.2
ATP1B1	0.516
KRT10	0.054
IL6R	0.822
DCAF6	-1.18 (active)
RASIP1	-0.055
GALE	-0.847
ZNF214	-2.25 (active)
ITLN2	0.837
THUMPD3	-1.44 (active)
CTF1	-5.71 (active)
PRR14L	-1.66 (active)
